Article PMC6805555, “Characterization of resistance to a potent D-peptide HIV entry inhibitor” (Retrovirology, 2019)
“Also recorded” adds a separate entry of the source.

Test system: IQN17 Q577R (HIV-1 N-trimer pocket mimic)
Test: Crystal structure of PIE12 with Q577R IQN17 (PDB 6PSA), buried surface area and hydrogen bonds
Settings: 1.3 Å resolution

SMILES: CC(=O)N[C@H](Cc1c[nH]cn1)C(=O)N1CCC[C@@H]1C(=O)N[C@@H]1CSSC[C@H](C(=O)N[C@H](CCC(=O)O)C(=O)N[C@H](CC(C)C)C(=O)NCC(=O)N[C@H](CCCCN)C(N)=O)NC(=O)[C@@H](CC(C)C)NC(=O)[C@@H](Cc2c[nH]c3ccccc23)NC(=O)[C@@H](CCC(N)=O)NC(=O)[C@@H](Cc2c[nH]c3ccccc23)NC(=O)[C@@H](CCC(=O)O)NC(=O)[C@H]2CCCN2C(=O)[C@@H](Cc2ccc(O)cc2)NC(=O)[C@@H](CC(=O)O)NC1=O [PIE12]
- hydrogen bonds: loss of two hydrogen bonds; also recorded: Q577R disrupts these hydrogen bonds
